## PSTVd loop 6 mutant pool in Nicotiana benthamiana

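Three N. benthamiana plants were inoculated with the whole mutant pool. Samples came from the inoculated region at 5 days, the leaf margin at 10 and upper systemic leaves at 12.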

Region: loop 6 of PSTVd (intermediate strain), upper and lower strand joined, each 5' to 3', the first 5 letters being the upper strand, closing pairs included. Wild type: UGACCGCGAG. Varied positions (N): UNNNCGNNNG.

Values are reads per thousand in the sample; higher means more abundant, 0 means not found.
Each value is the mean of three plants.
"Pool" is the share in the plasmid pool used as inoculum, on the same scale.
The inoculated region was read from the minus strand, the other sites from the plus strand.
IR is the inoculated region, LM the leaf margin, Sys the systemic leaves.
Samples held 36,220 to 57,551 reads, so the smallest values rest on one or two reads.
For reference, wild type rose from 20.7 per thousand in the pool to 195, 198, 203 (inoculated region), 629, 591, 734 (leaf margin) and 942, 870, 868 (systemic leaves).
The authors trace changes outside the varied positions to PCR and sequencing errors or to mutation in the plant; presence does not show that a variant is infectious alone.

UUUCCGUCGG (pool 0.314): IR 0.0654; LM 0.0169; Sys 0.
UGUCCGCGCG (pool 0.209): IR 0.154; LM 0.00920; Sys 0.
UUUACGGGUG (pool 0.209): IR 0.148; LM 0.00920; Sys 0.
UGAUCGAGGG (pool 0.327): IR 0.0719; LM 0; Sys 0.
UUCCCGUUGG (pool 0.418): IR 0.0476; LM 0.151; Sys 0.
UAAACGACUG (pool 0.222): IR 0.0766; LM 0; Sys 0.
UGGUCGAGCG (pool 0.209): IR 0.0840; LM 0; Sys 0.
UUCACGACUG (pool 0.379): IR 0.0886; LM 0; Sys 0.
UUGACGGGUG (pool 0.261): IR 0.0892; LM 0; Sys 0.
UGCUCGAUCG (pool 0.275): IR 0.0781; LM 0; Sys 0.
UAACCGUGUG (pool 0.275): IR 0.142; LM 0.0169; Sys 0.
UUCCCGUGGG (pool 0.183): IR 0.0951; LM 0.0239; Sys 0.
UCCUCGCGCG (pool 0.235): IR 0.155; LM 0.00773; Sys 0.
UGCUCGUGCG (pool 0.261): IR 0.0768; LM 0.00773; Sys 0.
UGCACGCACG (pool 0.235): IR 0.0825; LM 0; Sys 0.
UAGUCGGUCG (pool 0.222): IR 0.147; LM 0.00920; Sys 0.
UGUUCGUCGU (pool 0.0131): IR 0; LM 0; Sys 0.
UCGGCGCGAG (pool 0.366): IR 0.210; LM 0.339; Sys 0.0723.
UUCGCUACGG (pool 0.0131): IR 0; LM 0; Sys 0.
UAUGCGUGCG (pool 0.170): IR 0.0654; LM 0.00920; Sys 0.
CGACCGAGCG (pool 0.0131): IR 0.0119; LM 0; Sys 0.
UUUCCUACUA (pool 0.0131): IR 0; LM 0; Sys 0.
UUAACGAGCG (pool 0.196): IR 0.590; LM 0.0698; Sys 0.
UCUUCGCUUG (pool 0.405): IR 0.0837; LM 0.00841; Sys 0.
UGUGCGCUAG (pool 0.170): IR 0.0884; LM 0.0155; Sys 0.
UGGGCGCUUG (pool 0.366): IR 0.125; LM 0.00920; Sys 0.
UUCUCGACUG (pool 0.392): IR 0.0838; LM 0; Sys 0.
UGAACGACGU (pool 0.0131): IR 0; LM 0; Sys 0.
UGCGCGACGG (pool 0.157): IR 0.0946; LM 0.00773; Sys 0.
UGACCGCGUG (pool 0.105): IR 0.583; LM 7.01; Sys 1.21.
UGUUCGUCUG (pool 0.484): IR 0.132; LM 0; Sys 0.

Excerpt, the final 3 entries:

| sequence | pool | IR | LM | Sys |
|---|---|---|---|---|
| UGCGCGACGG | 0.157 | 0.0946 | 0.00773 | 0 |
| UGACCGCGUG | 0.105 | 0.583 | 7.01 | 1.21 |
| UGUUCGUCUG | 0.484 | 0.132 | 0 | 0 |

Values reported by Wu et al. 2024 (doi:10.1371/journal.ppat.1012142).